Earlier results in US9782422B2, “Treatment of conditions associated with mycotoxin exposure” (dated 2017).

Conditions: water and polar solvents; cited from earlier work

Structure (SMILES): CC1=C[C@H]2O[C@@H]3[C@H](O)C[C@](C)([C@@]2(CO)[C@H](O)C1=O)[C@]31CO1
- solubility: soluble in water and polar solvents such as methanol and acetonitrile
